Experimental data: PubChem BioAssay AID624099 (ICCB-Longwood, 2012)

- Purpose: 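Human genes that papillomavirus E2 requires to repress the HPV18 LCR promoter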 (primary screen)
- Cells: human C33A cervical carcinoma cells (HPV-negative) stably expressing BPV1 E2 and an HPV18 LCR luciferase reporter
- Knock-down reagent: siRNA pool against human genes, 40 nM
- Timing: 72 h
- Detection: 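Per-well luciferase luminescence, z-scored on each plate against the plate mean and SD with control wells left out, then averaged across three replicate plates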
- Scale: mean z-score and z-score: higher = stronger reporter signal, weaker E2 silencing
- Active means: 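Mean z ≥ 2 together with z ≥ 2 in two or more of the three replicates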
The deposit covers about 21,000 reagents; this is a random part of them. In the full data, 497 (2.4%) are marked active. 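Higher z means weaker E2 silencing; only reporter increases were scored, and knock-downs that hurt cell survival may mask genuine repressor factors.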 Unmarked entries are inactive.

ALG3 | mean z-score: -1.08; z-score, replicate A: -0.93; z-score, replicate B: -1.37; z-score, replicate C: -0.92
WIPF2 | mean z-score: -0.64; z-score, replicate A: -1.19; z-score, replicate B: -0.54; z-score, replicate C: -0.2
CROT | mean z-score: -0.01; z-score, replicate A: 0.21; z-score, replicate B: -0.03; z-score, replicate C: -0.21
LINC00938 | mean z-score: -0.11; z-score, replicate A: -0.32; z-score, replicate B: 0.02; z-score, replicate C: -0.03
PPP1R9A | mean z-score: 0.83; z-score, replicate A: 0.78; z-score, replicate B: 1.03; z-score, replicate C: 0.68
ERICH5 | mean z-score: 1.03; z-score, replicate A: 1.03; z-score, replicate B: 0.8; z-score, replicate C: 1.25
VASP | mean z-score: 0.17; z-score, replicate A: 0.1; z-score, replicate B: 0.26; z-score, replicate C: 0.15
AKAP1 | mean z-score: 0.49; z-score, replicate A: 0.44; z-score, replicate B: 0.47; z-score, replicate C: 0.58
SAC3D1 | mean z-score: 0.05; z-score, replicate A: 0.12; z-score, replicate B: 0.09; z-score, replicate C: -0.07
LINC00877 | mean z-score: 0.17; z-score, replicate A: 0.06; z-score, replicate B: -0.05; z-score, replicate C: 0.5
DRC11 | mean z-score: -0.08; z-score, replicate A: 0.23; z-score, replicate B: -0.08; z-score, replicate C: -0.38
SAR1B | mean z-score: 0.69; z-score, replicate A: 0.32; z-score, replicate B: 0.48; z-score, replicate C: 1.28
DPPA3P1 | mean z-score: 1.04; z-score, replicate A: 1.21; z-score, replicate B: 1.08; z-score, replicate C: 0.84
ELAPOR2 | mean z-score: -1; z-score, replicate A: -1.01; z-score, replicate B: -1; z-score, replicate C: -0.98
